According to publication PMC11094058, “Functional and antigenic characterization of SARS-CoV-2 spike fusion peptide by deep mutational scanning” (Nature Communications, 2024):

Target: N-terminally biotinylated peptide of SARS-CoV-2 S (808-…-827) (SARS-CoV-2 Wuhan-Hu-1, biotin on the N-terminus)
Details: both partners purified

Binder	binding result
COV44-62 Fab (Fab, V domains shown) VH: QMQLMQSGAEVKKPGASVTVSCKASGDTFSDYRIHWVRQAPGQGLEWMGRMNPKSGDTNFAQKFQGRVTMTRDMSINTAYMTLSGLTFDDTALYYCASLLIVGGFDPLDDFEVWGQGTMVTISS VL: QSALTQPPSASGSPGQSVTISCSGTSSDVGGYNFVSWYQHHPGKAPKILIYEVTKRPSGVPDRFSGSKSGNTASLTVSGLQAEDEADYYCSSYGGTNNLLFGGGTKLTVL	binds
COV44-79 Fab (Fab, V domains shown) VH: QVQLVESGGGVVQPGRSLRLSCAASGLTFSGYAMHWVRQAPGKGLEWVAVISRDARNKYYADSVKGRFTISRDNSKKTVYLEMNSLRVEDTAVYYCAILIIPGITEPGSPDALDIWGQGTMVSVSS VL: DIQMTQSPSSMSASVGDRVTITCRASQDISKWLAWYQQRPGKAPKLLIYAASSLQSGVPSRFSGSGSGTDFTLTISSLQPEDFATYYCQQASSFPWSITFGQGTRLEIR	binds
